Laboratory results as given in ChEMBL document CHEMBL1275403 (J Med Chem, 2010).

Tested on: ScGT1
Test: Antiprion activity against scrapie prion protein-infected mouse ScGT1 cells assessed as accumulation of PrPSc at 1 uM after 5 days by Western blotting
Type: cell-based
In short: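 ScGT1 cells in DMEM with 10% FBS were split 1:10 into Petri dishes and grown 2 days at 37 °C, 5% CO2. Non-toxic compound concentrations (10 nM–2 μM) were then added. After 5 days, cell proteins were extracted, quantified, proteinase K-digested and western-blotted. PK-resistant PrPSc was quantified by densitometry. EC50 is half-maximal inhibition. Values are mean of three experiments with SD.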

With `O=C1C=C(NCCCNc2c3c(nc4ccccc24)CCCC3)C(=O)C=C1NCCCNc1c2c(nc3ccccc13)CCCC2` the inhibition was 3.6%.
